In patent publication US20060062761A1:

Assays:
DRB1*0401 (human) = DRB1*0401 (human) (UniProt P01903); assay: competition
DRB1*0101 (human) = DRB1*0101 (human) (UniProt P01903); assay: competition

Influenza haema 103-115
IC50 (DRB1*0401 (human)): 7 µM
IC50 (DRB1*0101 (human)): 9 µM
